In patent US20140287433A1:

Biological target: VAMPtide (o-Abz/Dnp) (List Biological Laboratories, Inc.)
Experiment: cell-based or functional assay

“purified 150 kDa BoNT/B from C. botulinum strain Okra B (Metabiologics Inc.)” was tested, and the VAMPtide cleavage, Vmax s^-1 (t = 15-60 min), 1 nM toxin, buffer +TCEP was 0.027 Vmax s^-1, the VAMPtide cleavage, Vmax s^-1 (t = 15-60 min), 2 nM toxin, buffer +TCEP was 0.016 Vmax s^-1 and the VAMPtide cleavage, Vmax s^-1 (t = 15-60 min), 2 nM toxin, buffer +TCEP+Tween was 0.021 Vmax s^-1. It also gave a VAMPtide cleavage, Vmax s^-1 (t = 15-60 min), 5 nM toxin, buffer +TCEP of 0.045 Vmax s^-1, a VAMPtide cleavage, Vmax s^-1 (t = 15-60 min), 5 nM toxin, buffer +TCEP+Tween of 0.045 Vmax s^-1 and a VAMPtide cleavage, Vmax s^-1 (t = 15-60 min), 10 nM toxin, buffer +DTT+Tween of 0.044 Vmax s^-1. For the same substance, the VAMPtide cleavage, Vmax s^-1 (t = 15-60 min), 10 nM toxin, buffer +TCEP was 0.079 Vmax s^-1, the VAMPtide cleavage, Vmax s^-1 (t = 15-60 min), 10 nM toxin, buffer +TCEP+Tween was 0.076 Vmax s^-1 and the VAMPtide cleavage, Vmax s^-1 (t = 15-60 min), 20 nM toxin, buffer +DTT+Tween was 0.055 Vmax s^-1. The VAMPtide cleavage, Vmax s^-1 (t = 15-60 min), 20 nM toxin, buffer +TCEP was 0.126 Vmax s^-1 and the VAMPtide cleavage, Vmax s^-1 (t = 15-60 min), 20 nM toxin, buffer +TCEP+Tween was 0.111 Vmax s^-1.
